Anti-infective test results gathered from many reports (values: NIAID ChemDB through PubChem).

Common to all: growth or infection tests

Neighbouring rows are from separate reports. MIC50, MIC90 and the like: level of inhibition, or share of isolates inhibited. ECn is the concentration giving n% inhibition of infection, replication or growth. Inhibition is in % at the dose shown (toxicity tests: loss of growth or viability). Blank or dashed fields: not listed here.

compound,read-out,organism,cells,dose,strain,method,value
Nc1ccc2cc(S(=O)(=O)O)cc(S(=O)(=O)O)c2c1,inhibition,Herpes simplex virus,Human conjunctiva cells,5 µg/mL,-,cytopathic effect,0%
O=c1[nH]c(=O)n([C@H]2C[C@H](O)[C@@H](CO)O2)cc1I,inhibition,Varicella zoster virus,HELF,10 µg/mL,OKA,plaque count,100%
O=S(=O)(O)c1cc(O)c2c(O)cc(S(=O)(=O)O)cc2c1,inhibition,Rhinovirus,Human amnion AV3 cells,10 µg/mL,-,cytopathic effect,30%
O=c1[nH]c(=O)n([C@@H]2O[C@H](CO)[C@@H](O)[C@@H]2O)cc1/C=C/Br,inhibition,Varicella zoster virus,HELF,0.001 µg/mL,KANNO,plaque count,100%
CCO/N=C/c1ccc(OCCC2CCN(c3ccc(Cl)nn3)CC2)cc1,EC50,Rhinovirus,KB,-,363 (ICAM-1 receptor group 32),neutral red,1.031 µM
O=c1[nH]c(=O)n([C@@H]2O[C@H](CO)[C@@H](O)[C@@H]2O)cc1/C=C/Cl,inhibition,Varicella zoster virus,HELF,0.001 µg/mL,OKA,plaque count,78%
Cc1nc(NCCCCNc2ccnc3cc(Cl)ccc23)nc(-c2ccccc2)c1C(=O)OC(C)C,MIC99,Cryptococcus neoformans,-,-,96806,-,45.3 µg/mL
C=CCc1ccc(O)c(OC)c1,MIC90,Candida albicans,-,-,3021,turbidity,500 µg/mL
O=S(=O)(O)c1cccc2c(O)cccc12,inhibition,Adenovirus,Human amnion AV3 cells,50 µg/mL,TYPE 3,cytopathic effect,0%
Nc1nc2c(ncn2COCCO)c(=O)[nH]1,inhibition,Varicella zoster virus,HELF,10 µg/mL,OKA,plaque count,100%
Oc1ccccc1N=Cc1ccccc1,MIC99,Cryptococcus gattii,-,-,547/OTTI-97-PI-10,-,11.3 µg/mL
C=Cc1cn([C@@H]2O[C@H](CO)[C@@H](O)[C@@H]2O)c(=O)[nH]c1=O,inhibition,Varicella zoster virus,HELF,1 µg/mL,HIRAI,plaque count,100%
CCC(CC)[C@H](NC(C)=O)[C@@H]1[C@H](O)[C@@H](C(=O)O)C[C@H]1N=C(N)N,EC50,Influenza A virus,MDCK,-,H1N1 A/TEXAS/36/91,visual reading,0.05 µM
NS(=O)(=O)O,inhibition,Adenovirus,Human embryonic lung cells,10 µg/mL,TYPE 3,cytopathic effect,0%
CCOC(=O)c1c(C)nc(OCCCNc2ccnc3cc(Cl)ccc23)nc1-c1ccccc1,MIC99,Cryptococcus gattii,-,-,ATCC 24065,-,8 µg/mL
O=C(Nc1ccc2cc(S(=O)(=O)[O-])cc(S(=O)(=O)[O-])c2c1)c1ccccc1,inhibition,Herpes simplex virus,Human amnion AV3 cells,10 µg/mL,-,cytopathic effect,33%
Oc1ccccc1N=Cc1ccc(F)cc1,MIC99,Cryptococcus neoformans,-,-,27JF,-,16 µg/mL
Nc1c(S(=O)(=O)[O-])cc2cc(S(=O)(=O)[O-])ccc2c1O,inhibition,Adenovirus,Human amnion AV3 cells,5 µg/mL,TYPE 3,cytopathic effect,0%
C/C=C\[C@@H]1C[C@H](C(=O)O)N[C@H]1[C@@H](NC(C)=O)[C@](C)(CCC)OC,EC50,Influenza B virus,MDCK,-,Isolate C33D,plaque count,<0.01 µg/mL
O=S(=O)(O)c1ccc(N=Nc2c(O)ccc3cc(S(=O)(=O)O)ccc23)cc1,inhibition,Rhinovirus,Human embryonic lung cells,5 µg/mL,-,cytopathic effect,20%
CCOC(=O)/C=C/[C@H](C[C@@H]1CCNC1=O)NC(=O)[C@@H](CC(=O)[C@@H](NC(=O)c1cc(C)on1)C(C)C)Cc1ccc(F)cc1,EC50,Rhinovirus,OHIO HELA-I,-,Isolate 35,cytopathic effect / visual reading,<0.01 µg/mL

The last 3 rows once more:

compound | read-out | organism | cells | dose | strain | method | value
C/C=C\[C@@H]1C[C@H](C(=O)O)N[C@H]1[C@@H](NC(C)=O)[C@](C)(CCC)OC | EC50 | Influenza B virus | MDCK | - | Isolate C33D | plaque count | <0.01 µg/mL
O=S(=O)(O)c1ccc(N=Nc2c(O)ccc3cc(S(=O)(=O)O)ccc23)cc1 | inhibition | Rhinovirus | Human embryonic lung cells | 5 µg/mL | - | cytopathic effect | 20%
CCOC(=O)/C=C/[C@H](C[C@@H]1CCNC1=O)NC(=O)[C@@H](CC(=O)[C@@H](NC(=O)c1cc(C)on1)C(C)C)Cc1ccc(F)cc1 | EC50 | Rhinovirus | OHIO HELA-I | - | Isolate 35 | cytopathic effect / visual reading | <0.01 µg/mL